How the values were obtained:
[1] = tested on: Luciferase-encoding HCMV, AD169 strain; assay: CMV Luciferase assay (cellular herpesvirus replication); assay type: cell-based; settings: read-out: CMV-Luc Cellular EC50
Experimental: For all viral assays, 10 mM DMSO stock compound solutions were serially diluted in DMSO at 3.16 fold dilutions in 96-well clear round bottom plates. Compounds were then diluted in assay media at 1:20 and subsequently 10 μL of these dilutions were added to cells for final compound concentrations ranging either from 0.0159 μM to 50 μM in 0.5% DMSO/assay media, or from 0.00318 to 10 μM in 0.5% DMSO/assay media.
The assay uses a Luciferase-encoding HCMV. Luciferase is expressed under the control of a late viral gene (pp28) promoter in the AD169 strain, so that expression of the reporter is dependent on viral DNA replication. Compounds that affect any stage from viral entry to DNA replication result in a change in luciferase levels.
Viral replication in the presence or absence of compounds was measured by luciferase activity according to the following procedure: Neo-natal normal human dermal fibroblast cells (NN-NHDF, from ATCC cat #201-010) were seeded at 9,000 cells/well in 96-well white solid bottom plate at 80 uL/well in assay media: 2% FBS, 4 mM GlutaMax® (Invitrogen cat #35050) in DMEM/high glucose/no glutamine/no phenol red media (Invitrogen cat #31053). After 2 hrs at 37° C., 10 uL of compound diluted in assay media or 5% DMSO (final 0.5% DMSO/well) was added and the plates returned to 37° C. One hour later, 10 uL of virus diluted in assay media was added at a final Multiplicity of infection (MOI) of 1. Plates were incubated at 37° C. for 72 hrs. At 72 hours post-infection (hpi), plates were equilibrated to room temperature. After 25 min, 100 uL Renilla-Glo® Luciferase Assay Reagent (Promega cat # E2750) was added to each well and incubated for 10 min. Plates were covered to protect from light. Luminescence was measured on the PHERAstar FS®.
The following controls were included in the data analysis: No virus, no compound (0.5% DMSO)=IC (maximal inhibitory control); Virus, no compound (0.5% DMSO)=NC (neutral control). Data were analyzed using an internal Novartis software (Helios). The means of the controls (NC, IC) were used to normalize the results to a % scale using the formula: % Control=100−(100*(Sample value−NC)/(IC−NC)).
For each compound, the software derived an EC50 using a 4-parameter logistical model.

Sequences of proteins named here, by UniProt entry; tags and fusion partners are left off.
UniProt P08546, whole entry: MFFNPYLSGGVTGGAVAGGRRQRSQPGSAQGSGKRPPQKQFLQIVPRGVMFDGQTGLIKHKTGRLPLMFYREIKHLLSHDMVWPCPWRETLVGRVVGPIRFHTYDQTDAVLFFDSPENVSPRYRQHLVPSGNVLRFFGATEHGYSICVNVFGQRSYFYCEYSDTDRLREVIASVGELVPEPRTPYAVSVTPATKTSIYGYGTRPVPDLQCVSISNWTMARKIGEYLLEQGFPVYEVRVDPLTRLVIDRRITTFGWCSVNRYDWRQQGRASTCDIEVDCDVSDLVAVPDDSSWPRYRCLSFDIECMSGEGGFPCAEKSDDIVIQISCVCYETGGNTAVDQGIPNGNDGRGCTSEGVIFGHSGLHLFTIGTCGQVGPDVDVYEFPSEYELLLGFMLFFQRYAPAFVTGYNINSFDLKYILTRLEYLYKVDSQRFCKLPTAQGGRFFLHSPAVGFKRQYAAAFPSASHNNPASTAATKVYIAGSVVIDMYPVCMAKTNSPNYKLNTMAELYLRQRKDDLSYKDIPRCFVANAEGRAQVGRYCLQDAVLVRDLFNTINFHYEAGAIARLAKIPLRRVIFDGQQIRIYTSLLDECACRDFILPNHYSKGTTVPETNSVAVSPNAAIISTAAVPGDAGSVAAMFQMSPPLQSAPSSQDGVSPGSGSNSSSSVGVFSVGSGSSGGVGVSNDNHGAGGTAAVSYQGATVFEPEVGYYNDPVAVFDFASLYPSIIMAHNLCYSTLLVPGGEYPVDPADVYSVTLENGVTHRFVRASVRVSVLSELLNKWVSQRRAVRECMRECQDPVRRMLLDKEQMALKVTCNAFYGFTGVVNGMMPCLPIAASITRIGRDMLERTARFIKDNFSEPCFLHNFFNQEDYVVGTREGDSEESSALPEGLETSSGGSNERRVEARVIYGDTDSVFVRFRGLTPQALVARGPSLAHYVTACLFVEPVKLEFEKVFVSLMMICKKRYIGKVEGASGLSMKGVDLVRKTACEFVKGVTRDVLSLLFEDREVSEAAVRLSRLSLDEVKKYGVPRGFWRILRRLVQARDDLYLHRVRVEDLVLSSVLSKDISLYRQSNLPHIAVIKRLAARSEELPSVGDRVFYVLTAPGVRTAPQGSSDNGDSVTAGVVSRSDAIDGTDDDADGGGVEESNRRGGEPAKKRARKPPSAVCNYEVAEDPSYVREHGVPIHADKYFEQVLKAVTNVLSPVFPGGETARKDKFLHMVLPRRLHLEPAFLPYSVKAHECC
UniProt P04293, whole entry: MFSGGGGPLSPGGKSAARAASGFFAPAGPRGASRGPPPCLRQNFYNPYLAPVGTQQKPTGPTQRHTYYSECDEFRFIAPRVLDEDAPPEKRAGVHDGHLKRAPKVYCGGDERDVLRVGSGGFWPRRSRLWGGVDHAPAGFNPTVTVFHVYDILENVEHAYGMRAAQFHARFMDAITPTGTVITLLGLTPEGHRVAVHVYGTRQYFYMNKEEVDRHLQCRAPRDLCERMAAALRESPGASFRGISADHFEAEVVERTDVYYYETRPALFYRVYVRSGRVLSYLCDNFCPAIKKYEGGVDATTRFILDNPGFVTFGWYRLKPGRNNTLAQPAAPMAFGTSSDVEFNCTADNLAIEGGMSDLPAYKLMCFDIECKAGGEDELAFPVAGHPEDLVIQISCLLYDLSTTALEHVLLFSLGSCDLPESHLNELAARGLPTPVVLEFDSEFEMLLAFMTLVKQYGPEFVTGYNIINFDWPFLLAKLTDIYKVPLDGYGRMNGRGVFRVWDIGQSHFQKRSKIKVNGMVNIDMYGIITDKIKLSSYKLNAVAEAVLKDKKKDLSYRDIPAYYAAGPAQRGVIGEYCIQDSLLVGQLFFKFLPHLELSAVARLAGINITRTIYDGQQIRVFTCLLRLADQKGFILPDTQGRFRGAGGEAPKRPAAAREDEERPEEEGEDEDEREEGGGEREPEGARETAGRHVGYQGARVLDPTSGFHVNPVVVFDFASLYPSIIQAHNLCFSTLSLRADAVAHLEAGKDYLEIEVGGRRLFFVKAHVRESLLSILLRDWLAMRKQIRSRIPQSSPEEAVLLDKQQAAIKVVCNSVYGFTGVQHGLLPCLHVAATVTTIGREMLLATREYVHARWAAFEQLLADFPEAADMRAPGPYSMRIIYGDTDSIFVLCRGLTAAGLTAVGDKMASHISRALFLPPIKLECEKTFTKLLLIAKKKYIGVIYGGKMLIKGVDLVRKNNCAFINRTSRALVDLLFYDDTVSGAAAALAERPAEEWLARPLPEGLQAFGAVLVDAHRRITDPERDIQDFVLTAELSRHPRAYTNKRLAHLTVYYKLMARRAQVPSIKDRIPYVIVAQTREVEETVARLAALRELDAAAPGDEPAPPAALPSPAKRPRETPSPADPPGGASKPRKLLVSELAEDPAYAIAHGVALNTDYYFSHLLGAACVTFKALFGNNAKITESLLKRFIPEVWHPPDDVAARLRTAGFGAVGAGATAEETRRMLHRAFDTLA

[2] = target: human CMV DNA polymerase UL54 (Human cytomegalovirus (strain AD169) (HHV-5) (Human herpesvirus 5), UniProt P08546); assay: CMV polymerase biochemical assay (molecular beacon-based); settings: read-out: CMV-polymerase Biochemical IC50
Experimental: (§1) Both human CMV DNA polymerase UL54 and human HSV DNA polymerase UL30 were produced as N-terminal MBP fusion of the full length, wild type recombinant proteins in order to enhance soluble expression in insect cell expression system. The proteins were expressed in sf9 insect cells via baculovirus transduction and cells were harvested after 48 hours. The soluble proteins were purified using the standard Ni-IMAC purification strategy via the N-terminal hexa-Histidine tag, followed by heparin affinity chromatography. Both of the final MBP fusion proteins were more than 90% pure and the yield of UL54 was up to 1.8 mg per liter culture while UL30 was up to 15 mg per liter culture. All purification steps were performed on ice, with buffers chilled on ice and FPLC fraction collectors set at 6° C. The final UL54 protein was concentrated and stored in buffer containing 35 mM Tris pH7.5, 375 mM NaCl, 42.5% Glycerol, and 1 mM TCEP at −20° C. UL30 protein was stored in buffer containing 20 mM HEPES, pH7.0, 420 mM NaCl, 20% glycerol, 6 mM Imidazole, and 0.8 mM DTT at−80° C.
(§2) DNA polymerase activity was measured using a molecular beacon-based assay, as described in Ma et. al.
(§3) 100 pM CMV polymerase or 625 pM HSV polymerase was added to a buffer containing 20 mM Tris, pH=7.5, 100 mM NaCl, 10 mM MgCl2, 0.01% Tween-20, 0.5 mM EDTA, 10% Sucrose and 1 mM DTT. The inhibitor was pre-incubated with the polymerase for 30 minutes at room temperature. Reactions were initiated by the addition of a mixture containing 1.25 uM dATP, 1.25 uM dCTP, 1.25 uM dTTP, 1.25 uM dGTP, 200 nM Primer B (5′-GAC GGG AAG-3′5′-GAC GGG AAG-3′) and 100 nM molecular beacon (5′-5,6-FAM-CCTCTCCGTGTCTTGTACTTCCCGTCAGAGAGG-BHQ1-3′). For human CMV polymerase the reactions were incubated for 60 minutes at room temperature. For HSV polymerase the reactions were incubated for 20 minutes at room temperature. The reactions were then read on a Perkin-Elmer EnVision 2101 reader (fluorescence) using an excitation of 480 nm and emission of 535 nm. 1050s were determined using an internal Novartis software (Helios).
as §3, with “For human CMV polymerase the reactions were incubated for 60 minutes at room temperature. For HSV polymerase the reactions were incubated for 20 minutes at room temperature.” left out, “nm.” for “nm. 1050s were determined using an internal Novartis software (Helios).”

[3] = target: human HSV DNA polymerase UL30 (Human herpesvirus 1 (strain 17) (HHV-1) (Human herpes simplex virus 1), UniProt P04293); assay: HSV polymerase biochemical assay (molecular beacon-based); settings: read-out: HSV-polymerase Biochemical IC50
Experimental: as §1, §2, §3
as §3, with “For human CMV polymerase the reactions were incubated for 60 minutes at room temperature. For HSV polymerase the reactions were incubated for 20 minutes at room temperature.” left out, “nm.” for “nm. 1050s were determined using an internal Novartis software (Helios).”

Row | SMILES | EC50 [1] | IC50 [2] | IC50 [3]
1 | N#CCC1(CS(=O)(=O)C2(CN3CCn4c(ccc(C(=O)NCc5ccc(C#N)c(F)c5)c4=O)C3=O)CC2)CC1 | 385 nM | 9.6 nM | 138 nM
2 | O=C(NCc1ccc(Cl)nc1)c1ccc2n(c1=O)CCN(CC1(S(=O)(=O)C3CC3)CC1)C2=O | 223 nM | 5.1 nM | 160 nM
3 | N#CCC1(CS(=O)(=O)C2(CN3CCn4c(ccc(C(=O)NCc5ccc(C#N)cc5)c4=O)C3=O)CC2)CC1 | 750 nM | 16.9 nM | 182 nM
4 | N#Cc1ccc(CNC(=O)c2ccc3n(c2=O)CCN(CC2(S(N)(=O)=O)CC2)C3=O)cc1 | 575 nM | 3.3 nM | 111 nM
